A mixed list of measured activities; the numbers were collected in NIAID ChemDB.

Common to all: whole-cell or culture tests; species: Candida tropicalis; read-out: MIC100

MIC50, MIC90 and the like: level of inhibition, or share of isolates inhibited.

SMILES,method,strain,result
COc1cccc(-c2cc3cccnc3[nH]2)c1,,ATCC 201380,31.3 µg/mL
O/N=C\c1ccccc1O,,,3600 µM
C[Si](C)(C)C#Cc1cnc2[nH]c(-c3ccccc3)cc2c1,,ATCC 201380,31.3 µg/mL
Cc1ccc(-c2c3c(N)c4c(nc3nc3c2c(C)nn3-c2ccccc2)CCC4)cc1,broth dilution / absorbance,CCC 131,125 µg/mL
Nc1ccc(S(=O)(=O)Nn2sc3ccccc3c2=O)cc1,,ATCC 1369,>100 µg/mL
Clc1cnc2[nH]ccc2c1,,ATCC 201380,15.6 µg/mL
CC(=O)Nc1ccc(S(=O)(=O)Nn2sc3ccccc3c2=O)cc1,,ATCC 1369,>100 µg/mL
O=[N+]([O-])c1ccc(/C=N\O)cc1,,,3010 µM
C[C@H]1[C@H](O)[C@@H](C)/C=C/C=C/C=C/C=C/C=C/C=C/C=C/[C@H](O[C@@H]2O[C@H](C)[C@@H](O)[C@H](N)[C@@H]2O)C[C@@H]2O[C@](O)(C[C@@H](O)C[C@@H](O)CC[C@H](O)[C@@H](O)C[C@@H](O)CC(=O)O[C@H]1C)C[C@H](O)[C@H]2C(=O)O,,ATCC 201380,2.5 µg/mL
C[C@H]1[C@H](O)[C@@H](C)/C=C/C=C/C=C/C=C/C=C/C=C/C=C/[C@H](O[C@@H]2O[C@H](C)[C@@H](O)[C@H](N)[C@@H]2O)C[C@@H]2O[C@](O)(C[C@@H](O)C[C@@H](O)CC[C@H](O)[C@@H](O)C[C@@H](O)CC(=O)O[C@H]1C)C[C@H](O)[C@H]2C(=O)O,broth dilution,MTCC 184,2 µg/mL
COc1ccc(/C=N\O)cc1,broth dilution,,1650 µM
CSCC[C@H]1NC(=O)[C@H]2CCCN2C1=O,broth dilution,MTCC 184,16 µg/mL
COc1ccc(/C=N/O)cc1,,,3310 µM
COc1ccc(-c2cc3cc(Cl)cnc3[nH]2)c(C)c1,,ATCC 201380,15.6 µg/mL
CC(=O)Nc1ccc(S(=O)(=O)N(n2sc3ccc(C)cc3c2=O)S(=O)(=O)c2ccc(NC(C)=O)cc2)cc1,,ATCC 1369,>100 µg/mL
C/C(=N/O)C(Cl)(Cl)Cl,,,6450 µM
COc1ccc(-c2cc3cccnc3[nH]2)cc1,,ATCC 201380,31.3 µg/mL
Cc1ccc(-c2c3c(N)c4c(nc3nc3c2c(C)nn3-c2ccccc2)CCCCC4)cc1,broth dilution / absorbance,CCC 131,125 µg/mL
COc1ccccc1-c1cc2cc(C)cnc2[nH]1,,ATCC 201380,31.3 µg/mL
CC(=O)Nc1ccc(S(=O)(=O)N(n2sc3ccccc3c2=O)S(=O)(=O)c2ccc(NC(C)=O)cc2)cc1,,ATCC 1369,>100 µg/mL
O/N=C\c1ccc(F)cc1,,,7200 µM

3 of the rows above, restated:

SMILES | method | strain | result
COc1ccccc1-c1cc2cc(C)cnc2[nH]1 |  | ATCC 201380 | 31.3 µg/mL
CSCC[C@H]1NC(=O)[C@H]2CCCN2C1=O | broth dilution | MTCC 184 | 16 µg/mL
COc1ccc(/C=N/O)cc1 |  |  | 3310 µM

Neighbouring rows are from separate reports. Blank or dashed fields: not listed here.